Construct, isoform or probe ends are uncertain for at least one entry. Weaker means in comparison with the reference protein, sequence or condition of that experiment.
Key:
Assay in all cases: fluorescence anisotropy
Conditions in all cases: recombinant protein
NELF ΔA tentacle (human) = system: NELF ΔA tentacle (human)
[1] = system: NELF ΔAE tentacle (human)
NELF ΔE tentacle (human) = system: NELF ΔE tentacle (human)

Measured: binding result

CCAGAUCUGAGCCUGGGAGCUCUCUGG [HIV-1 TAR stem loop]
binds more weakly: all assays above

Source: doi:10.1101/2024.08.29.610268
